# Molecular target: T1, viral envelope protein gp120 interaction with the cellular receptor protein CD4 (Human immunodeficiency virus type 1 group M subtype B, UniProt P04578)
# T1 construct: viral envelope protein gp120
# Format: binding, HIV
# Conditions: concentration reducing gp120 interaction with CD4 by 50%; b100 says infected blood; read-out: Test 1 EC50
# Description: Two tests were performed: Test 1 was performed using infected blood, while Test 2 used cell cultures.
# All stocks solutions were made 25 mM in distilled water and tested at same concentrations.
# The procedure was carried out as follows: • 1 Plastic plates were coated with cellular receptor protein CD4. • 2 The plates were washed well before adding a predetermined, appropriate quantity of viral envelope protein gp120 for binding to CD4. • 3 To see inhibition by compounds, different concentrations were added a few minutes before adding gp120. • 4 The mixture was incubated at 37° C. for binding. • 5 The plates were then flashed well and bound gp120 was detected by reaction with anti-HIV antibodies, incubated for 12 hours at 4° C. • 6 The amount of antibody bound was detected by adding anti-Human antibodies attached to an enzyme horse raddish peroxidase. • 7 After another incubation and wash, the quantity of the enzyme was measured by adding substrate o-phenyl diamine (OPD). • 8 The colour developed was read at 492 nm. • 9 All incubations took three days for adding different reagents. The percentage of inhibition by compounds, was calculated from the standard curve obtained by using different dilutions of gp120 alone. Test 2
substance,measurement,value
dodecapotassium acetate of p-bromopyrogallol P—F-phenyl tetramer [AC-1],EC50,500 to 1000 nM

# Reference: patent US7338977B2, “Anti-viral compounds” (Aids Care Pharma Limited, priority 2003, dated 2008)
